# Results published in PubChem BioAssay AID573 (SRMLSC, 2007).
# Only a part is listed here, and it is no random draw. The source made the active and inactive calls.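 The calls were made as follows: active = growth inhibition at or above a cutoff equal to the mean over every tested compound plus 3 SD (cut at about 60% in these data); inactive = the rest.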
# Assay: E. coli ΔtolC antibacterial growth inhibition – strain BW25113 ΔtolC::kan, 384-well, primary screen (AID 573)
# Details: E. coli BW25113 tolC mutant growth, OD615; stronger effect = higher value; screened at 10 µM (by protocol)
# In short: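 Doses: one dose of 10 µM final / Material: E. coli BW25113 ΔtolC::kan, tolC deletion mutant strain / Buffer or medium: LB with kanamycin 50 µg/mL / Evaluation: percent growth inhibition / Detection: optical density read at 615 nm / Incubation: 37 °C, 20 h exposure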
row,Compound,growth inhibition
1,CCN(CC)CC(O)COC(=O)C(O)(c1ccccc1)C1CCCCC1 (stereo not drawn),inactive: 12.4%
2,COc1ccccc1OP(C)(=O)Nc1c(C)n(C)n(-c2ccccc2)c1=O (stereo not drawn),inactive: -6.22%
3,CP(=O)(Oc1ccccc1)N1CCOC1=O (stereo not drawn),inactive: -12.7%
4,Cc1nc2ccc3ccccc3c2o1.O=[N+]([O-])c1cc([N+](=O)[O-])c(O)c([N+](=O)[O-])c1,inactive: 9.03%
5,COc1ccccc1OP(C)(=O)Nc1ccc(C)c(C)c1 (stereo not drawn),inactive: 3.2%
6,CP(=O)(Nc1ccccn1)Oc1ccccc1 (stereo not drawn),inactive: -15.4%
7,CP(=O)(Nc1ccccc1F)Oc1ccccc1 (stereo not drawn),inactive: -7.38%
8,CN(C)CCOC(=O)C(O)(c1ccccc1)C1CCCCC1 (stereo not drawn),inactive: -10.1%
9,CP(=O)(Nc1ccc2c(c1)OCCO2)Oc1ccccc1 (stereo not drawn),inactive: 1.9%
10,Cc1ccccc1NP(C)(=O)Nc1ccccc1C,inactive: -25%
11,CCOP(C)(=S)SCC(=O)NC(C)(CC)C(=O)O (stereo not drawn),inactive: -15.3%
12,Cc1nc2ccc3ccccc3c2s1.O=[N+]([O-])c1cc([N+](=O)[O-])c(O)c([N+](=O)[O-])c1,inactive: 6.93%
13,Cc1ccc(C)c(NP(C)(=O)Oc2ccccc2)c1 (stereo not drawn),inactive: 0.31%
14,COc1ccccc1OP(C)(=O)Nc1ccc(C)cc1 (stereo not drawn),inactive: -27%
15,Cc1ccc(NP(C)(=O)Oc2ccccc2)c(C)c1 (stereo not drawn),inactive: 6.56%
16,CP(=S)(Nn1cnnc1)Oc1ccccc1 (stereo not drawn),inactive: -19.4%
17,CCOP(C)(=S)SCC(=O)NC(C)C(=O)O (stereo not drawn),inactive: -16.5%
18,CP(=O)(NC(=O)Nc1ccccc1)Oc1ccccc1 (stereo not drawn),inactive: 5.95%
